Source: US20070048329A1, “Epstein barr virus peptide epitopes, polyepitopes and delivery system therefor” (priority 2002, published 2007)

Tested on: peptide-sensitised PHA blasts and LCLs
Assay: 51Cr-release cytotoxicity assay with peptide-specific CTL lines and clones
Format: cell-based, human
Conditions: CTL lines/clones against autologous and allogeneic targets sharing HLA alleles
Procedure: Polyclonal CTL lines and LMP1-specific CTL clones were established according to previously published methods (Moss 1988; Khanna 1998). Briefly, 2×10^6 PBMCs were stimulated with 1×10^6 autologous lymphocytes (responder to stimulator ratio of 2:1) pulsed with 10 μM peptide for 1 hr in 2 ml in a 24-well plate. After 3 days, culture medium with IL-2 (10 U/ml) was added and the cells were further expanded. These lymphocytes were restimulated on day 7 with γ-irradiated (8000 rad) autologous LCLs. After 10 days in culture medium, the cells were used as polyclonal effectors in a standard ^51Cr-release assay against peptide-sensitised autologous PHA blasts.
To generate peripheral blood CTL clones specific for the LMP1 derived peptides, PBMCs of healthy donors were reactivated (2×10^6) PBMCs with peptide-sensitised (10 ug of peptide/ml) autologous lymphocytes (1×10^6) in 2 ml wells of a 24-well plate in culture medium. After 3 days, the cells were seeded onto 0.35% agarose and maintained in T cell growth medium containing rIL2 (50 IU/ml). After another 3 days, growing clones were transferred to 96-well round-bottom tissue culture plates (Life Technologies) and cultured in T cell growth medium containing rIL2 (50-100 IU/ml).
Target cells were pre-sensitized with synthetic peptide epitopes and then incubated with ^51Cr for 90 min. Following incubation, these cells were washed in growth medium and used as targets in a standard 5 h ^51Cr-release assay (Moss, 1988)
To further characterize the minimal T cell epitopes defined by ELISPOT assays we generated polyclonal and clonal CTL lines specific for these epitopes. PBMCs from the healthy seropositive donors were stimulated with synthetic peptide epitopes and the CTL clones or polyclonal lines were established and tested in standard ^51Cr-release assays. The […] peptide-specific CTL clones were generated using initial stimulation with peptide-sensitized autologous PBMC followed by continuous restimulation with irradiated autologous LCL. These CTL clones were screened for […]-specific CTL activity by ^51Cr release assays against peptide-sensitised autologous and allogeneic PHA blast and LCLs. […] Titration of this minimal epitope on autologous PHA blasts further confirmed the fine specificity of this CTL clone (FIG. 5B).

Sequence | HLA Restriction
VLYSFALML | HLA A2
ALLVLYSFAL | HLA A2
ALLVLYSFA | HLA A2
IALYLQQNW | HLA B57 and HLA B58; also recorded: HLA B571B58

Tested on: peptide-sensitised PHA blasts and LCLs
Assay: not given
Conditions: reference Khanna et. al. or Leen et. al.; cited from earlier work

Sequence | HLA Restriction
YLQQNWWTL [reference compound] | HLA A2
ESDSNSNEG [reference compound] | HLA DQ2
YLLEMLWRL [reference compound] | HLA A2

Entries after “also recorded” stand apart in the source; their conditions may differ.
